{
  "source": "ChEMBL document CHEMBL1649232",
  "about": "(Antimicrob Agents Chemother, 2009)",
  "key": {"[1]": {"tested_on": "Influenza A virus", "test": "Ratio of IC50 for Influenza A virus A/New Caledonia/20/99 (H1N1)) harboring neuraminidase I222M mutant to IC50 for Influenza A virus A/New Caledonia/20/99 (H1N1)) harboring wild type neuraminidase"}, "[2]": {"tested_on": "Influenza A virus", "test": "Ratio of IC50 for Influenza A virus A/New Caledonia/20/99 (H1N1)) harboring neuraminidase H274Y mutant to IC50 for Influenza A virus A/New Caledonia/20/99 (H1N1)) harboring wild type neuraminidase"}, "[3]": {"tested_on": "Influenza A virus", "test": "Ratio of IC50 for Influenza A virus A/New Caledonia/20/99 (H1N1)) harboring neuraminidase I222M and H274Y mutant to IC50 for Influenza A virus A/New Caledonia/20/99 (H1N1)) harboring wild type neuraminidase"}, "[4]": {"tested_on": "Influenza A virus", "test": "Ratio of IC50 for Influenza A virus A/New Caledonia/20/99 (H1N1)) harboring neuraminidase I222V mutant to IC50 for Influenza A virus A/New Caledonia/20/99 (H1N1)) harboring wild type neuraminidase"}},
  "data": [
    {"smiles": "CCC(CC)[C@H](NC(C)=O)[C@@H]1[C@H](O)[C@@H](C(=O)O)C[C@H]1NC(=N)N", "note": "[PERAMIVIR ANHYDROUS]", "values": [
      {"measurement": "Ratio IC50", "setting": "[1]", "result": 1},
      {"measurement": "Ratio IC50", "setting": "[2]", "result": 347},
      {"measurement": "Ratio IC50", "setting": "[3]", "result": 400},
      {"measurement": "Ratio IC50", "setting": "[4]", "result": 1}
    ]}
  ]
}
